Data reported in patent US20260069689A1, “ANTI-SARS-COV-2-SPIKE GLYCOPROTEIN ANTIBODIES AND ANTIGEN-BINDING FRAGMENTS” (Regeneron, published 2026).

B1: mAb14260 (antibody, V domains shown)
VH: EVQLVESGGGLVQPGGSLRLSCAASGFTFSIYEMNWVRQAPGKGLEWVSYITSSGFTIYYADSVKGRFTISRDNAKNSLYLQMHSLRAEDTAVYYCATSSSSGYYFDYWGQGTLVTVSS
VL: not shown
B2: mAb14260 (antibody, V domains shown)
VH: EVQLVESGGGLVQPGGSLRLSCAASGFTFSIYEMNWVRQAPGKGLEWVSYITSSGFTIYYADSVKGRFTISRDNAKNSLYLQMHSLRAEDTAVYYCATSSSSGYYFDYWGQGTLVTVSS
VL: not shown

Key:
[1] = target: T1, SARS-CoV2 Spike ecto foldon Trimer expressed with a C-terminal myc-myc-hexahistidine (SARS-CoV-2, UniProt P0DTC2 14-1213); assay: SPR Biacore, mAb captured by anti-hFc, 37C
T1 construct: extracellular domain

[2] = target: T1, SARS-CoV2 Spike ecto foldon Trimer …; assay: SPR Biacore, mAb captured by anti-hFc, 25C
[3] = target: T2, SARS-COV-2 RBD extracellular domain expressed with a C-terminal mouse IgG2a Fc (SARS-CoV-2); assay: Biacore SPR, mAb captured on anti-hFc, 37 C
[4] = target: T2, SARS-COV-2 RBD extracellular domain …; assay: Biacore SPR, mAb captured on anti-hFc, 25 C

Binder | Kd [1] [nM] | koff [1] [s⁻¹] | kon [1] [M⁻¹ s⁻¹] | t½ [1] [h] | Kd [2] [nM] | koff [2] [s⁻¹] | kon [2] [M⁻¹ s⁻¹] | t½ [2] [h] | Kd [3] [nM] | koff [3] [s⁻¹] | kon [3] [M⁻¹ s⁻¹] | t½ [3] [h] | Kd [4] [nM] | koff [4] [s⁻¹] | kon [4] [M⁻¹ s⁻¹] | t½ [4] [h]
B1 | 0.0604 | 5.73e-05 | 949000 | 3.36 | 0.0386 | 5.87e-05 | 1.52e+06 | 3.28 | – | – | – | – | – | – | – | –
B2 | – | – | – | – | – | – | – | – | 0.054 | 0.000104 | 1.93e+06 | 1.84 | 0.0443 | 8.7e-05 | 1.96e+06 | 2.21
